Compound potency records, mixed from different reports. Data source: NIAID ChemDB in PubChem.

Shared fields: target-level tests; species: HIV-1; protein: Integrase; read-out: IC50

ICn is the concentration giving n% inhibition. Conditions beyond the fields shown may differ between rows. a–b is a range or a potency band.

compound,read by,value
CC(=O)OCC(C)(C)C(=O)c1cn2ccn(Cc3cccc(Cl)c3)c(=O)c2c(O)c1=O,ELISA,<0.01 µM
CC(=O)N(CC1CCCCC1)C1CN(C)CCn2c1nc(C(=O)NCc1ccc(F)cc1)c(O)c2=O,ELISA,<10 µM
O=C1c2c(O)c(=O)n(C3CCNCC3)c(=O)n2CCN1Cc1ccc(F)cc1,strand transfer,<10 µM
O=c1ccn2ccn(CCCc3c(F)cccc3Cl)c(=O)c2c1O,ELISA,0.01–0.1 µM
COCC(C)n1c(=O)c(O)c2n(c1=O)CCN(Cc1ccc(F)cc1)C2=O,strand transfer,<10 µM
O=C(O)/C(O)=C/C(=O)N(Cc1ccc(F)cc1)Cc1ccccc1Cl,strand transfer,<70 µM
CC(C)n1c(=O)c(O)c2n(c1=O)CCN(Cc1cccc3ccccc13)C2=O,strand transfer,<10 µM
Cc1noc(CN2CCn3c(nc(C(=O)NCc4ccc(F)cc4)c(O)c3=O)C2(C)C)n1,ELISA,<10 µM
CC(C)NC(=O)N(C)CCC1CN(Cc2ccc(F)cc2)C(=O)c2c(O)c(=O)n(C(C)C)c(=O)n21,strand transfer,<10 µM
CN(Cc1ccc(F)c(F)c1)C(=O)/C=C(\O)C(=O)O,strand transfer,<70 µM
O=C1c2c(O)c(=O)c(-c3nccs3)cn2CCN1Cc1ccccc1Cl,ELISA,0.1–1 µM
CN(Cc1ccc2ccccc2c1)C(=O)/C=C(\O)C(=O)O,strand transfer,<70 µM
CC(C)(C)C(=O)c1cn2c(c(O)c1=O)C(=O)N(Cc1ccc(F)cc1)CC2,ELISA,0.01–0.1 µM
Cc1nnc(C(=O)N(C)C2CN(C)CCn3c2nc(C(=O)NCc2ccc(F)cc2)c(O)c3=O)o1,ELISA,<10 µM
CC(C)C(=O)c1cn2ccn(Cc3ccc(F)cc3)c(=O)c2c(O)c1=O,ELISA,<0.01 µM
CCN(C(=O)C(=O)N(C)C)C1CN(C)CCn2c1nc(C(=O)NCc1ccc(F)c(C)c1)c(O)c2=O,ELISA,<10 µM
CC(C)C(=O)c1cn2ccn(Cc3cccc(Cl)c3)c(=O)c2c(O)c1=O,ELISA,<0.01 µM
COc1ccc(CN(C)C(=O)/C=C(\O)C(=O)O)cc1,strand transfer,<70 µM
CN(C)C(=O)c1cn2ccn(Cc3cccc(Cl)c3)c(=O)c2c(O)c1=O,ELISA,0.01–0.1 µM
CN(Cc1ccc(F)c(Cl)c1)C(=O)/C=C(\O)C(=O)O,strand transfer,<70 µM
CCN1CCn2c(nc(C(=O)NCc3ccc(F)c(C)c3)c(O)c2=O)C(N(C)C(=O)C(=O)N(C)C)C1,ELISA,<10 µM

The last 2 rows once more:

compound,read by,value
CN(Cc1ccc(F)c(Cl)c1)C(=O)/C=C(\O)C(=O)O,strand transfer,<70 µM
CCN1CCn2c(nc(C(=O)NCc3ccc(F)c(C)c3)c(O)c2=O)C(N(C)C(=O)C(=O)N(C)C)C1,ELISA,<10 µM